## Vif LAI: effect of single changes on growth against APOBEC3G

Protein: Vif of HIV-1 LAI (a laboratory-adapted subtype B strain). Residues 12-115 were scanned and are shown below; the first letter is residue 12.
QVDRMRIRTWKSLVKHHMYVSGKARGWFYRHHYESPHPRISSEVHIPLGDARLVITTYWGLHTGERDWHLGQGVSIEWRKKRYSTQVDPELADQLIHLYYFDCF

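A pool of vif mutants was passaged twice, 72 h each, on SupT1 cells that express APOBEC3G. Each of three replicates was sequenced after round two and set against the merged round-one pool.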

Values are log2 enrichment relative to wild type (0); lower means weaker defence against APOBEC3G and poorer growth. Substitutions are written as wild-type residue, site number, new residue. The median of three replicates is given, with the replicates in brackets. Input reads are the counts in the merged round-one pool, before selection. Replicates agree only moderately (rank correlation about 0.4-0.65); scores from under about 50 input reads tend to be too high.

mutation,input reads,log2 enrichment (median)
P47A,512,-2.65 (-3.56 -2.65 -1.33)
P47C,741,-2.80 (-2.25 -2.80 -3.11)
P47F,37,0.58 (0.58 4.92 0.12)
P47G,364,-2.25 (-1.23 -4.19 -2.25)
P47I,311,-1.40 (-1.40 -3.02 1.60)
P47K,861,-3.46 (-2.59 -3.46 -3.67)
P47L,35,-2.94 (-2.51 -2.94 -2.97)
P47Q,447,-3.17 (-1.92 -3.94 -3.17)
P47R,21,2.39 (1.67 4.07 2.39)
P47T,1416,-1.95 (-1.86 -3.92 -1.95)
P47V,497,-0.07 (-0.83 1.19 -0.07)
P47W,46,1.00 (1.00 -0.83 1.77)
H48C,900,-2.28 (-0.85 -2.37 -2.28)
H48D,68,1.08 (1.08 -1.08 1.36)
H48E,456,-1.30 (3.03 -1.61 -1.30)
H48F,194,-5.43 (1.79 -6.98 -5.43)
H48K,817,-4.04 (-3.32 -4.10 -4.04)
H48L,414,-2.61 (-0.16 -3.43 -2.61)
H48P,108,-2.52 (-2.52 -3.82 -2.26)
H48S,481,-1.78 (-1.40 -3.01 -1.78)
H48T,400,-3.18 (-3.18 -4.57 -2.22)
P49A,460,-2.73 (-2.73 1.12 -2.96)
P49E,36,1.16 (1.16 4.89 0.45)
P49G,1016,-2.45 (1.06 -3.42 -2.45)
P49I,499,-2.69 (-2.61 -4.07 -2.69)
P49L,644,-2.91 (-2.98 -2.91 -2.90)
P49Q,501,-1.56 (-1.56 2.45 -1.74)
P49R,89,0.08 (0.08 -1.20 4.49)
P49T,42,0.70 (0.70 4.95 0.48)
P49V,18,1.68 (0.03 4.93 1.68)
P49W,116,1.89 (4.32 -1.83 1.89)
R50A,716,-2.94 (-2.94 -5.15 -1.29)
R50D,310,-3.39 (-3.32 -3.39 -4.52)
R50E,17,1.32 (1.32 4.84 -0.37)
R50F,445,-2.46 (-2.46 0.37 -2.72)
R50G,700,-1.01 (0.62 -2.28 -1.01)
R50K,431,-0.56 (-0.56 1.66 -1.54)
R50N,488,-1.90 (-1.90 1.31 -1.90)
R50P,836,-4.55 (-3.61 -4.55 -4.73)
R50T,47,3.22 (3.22 4.97 0.69)
I51C,794,-3.37 (-3.28 -4.75 -3.37)
I51D,392,-3.90 (-4.38 -3.90 -2.19)
I51E,207,-3.46 (-3.46 -3.90 -1.43)
I51H,215,-0.71 (-0.71 2.12 -0.82)
I51N,24,1.81 (1.49 4.71 1.81)
I51P,433,-3.12 (-3.30 1.41 -3.12)
I51Q,220,-0.40 (3.80 -2.02 -0.40)
I51T,478,-1.51 (-2.79 -0.31 -1.51)
I51W,412,-3.70 (-3.72 -1.83 -3.70)
I51Y,59,0.66 (0.66 -0.13 4.78)
S52D,342,-3.70 (-5.78 -3.70 -3.44)
S52F,45,0.59 (0.59 5.06 0.12)
S52G,91,-0.33 (2.01 -0.33 -0.44)
S52H,515,-0.96 (-0.44 -1.56 -0.96)
S52I,351,-3.50 (-3.50 -4.37 -3.12)
S52L,439,-1.62 (-1.62 1.52 -2.52)
S52N,16,-1.87 (-1.41 -3.42 -1.87)
S52P,529,-3.60 (-3.60 -4.33 -3.42)
S52Q,471,-3.54 (-0.75 -5.08 -3.54)
S52R,532,-1.60 (-1.21 -2.87 -1.60)
S52Y,1035,-3.20 (-2.42 -4.43 -3.20)

The first 2 entries again:

mutation	input reads	log2 enrichment (median)
P47A	512	-2.65 (-3.56 -2.65 -1.33)
P47C	741	-2.80 (-2.25 -2.80 -3.11)

Some changes are missing from the data or left out. The authors note that some positive scores may be noise, and some enriched variants failed when tested singly.

The measurements come from Langley et al. 2025, preprint (doi:10.1101/2025.10.20.683452).